Paper PMC5501846, “X-Ray snapshots of a pyridoxal enzyme: a catalytic mechanism involving concerted [1,5]-hydrogen sigmatropy in methionine γ-lyase” (Scientific Reports, 2017)

How the values were obtained:
COCC[C@H](N)C(=O)O = experiment: purified protein; conditions: 100 mM phosphate pH 7.0, 1 mM DTT, 20 μM PLP, 37 °C
C[Se]CC[C@H](N)C(=O)O = experiment: purified protein; conditions: 100 mM phosphate pH 7.0, 1 mM DTT, 20 μM PLP, 37 °C

EhMGL1 (Entamoeba histolytica; Y108F) was tested, and the Km (COCC[C@H](N)C(=O)O) was 4600 ± 370 µM, the kcat (COCC[C@H](N)C(=O)O) was 0.1 s⁻¹ and the kcat/Km (COCC[C@H](N)C(=O)O) was 20 M⁻¹ s⁻¹. The Km (C[Se]CC[C@H](N)C(=O)O) was 740 ± 100 µM, the kcat (C[Se]CC[C@H](N)C(=O)O) was 0.06 s⁻¹ and the kcat/Km (C[Se]CC[C@H](N)C(=O)O) was 80 M⁻¹ s⁻¹.
